Data taken from ChEMBL document CHEMBL3098072 (Bioorg Med Chem, 2014).
In brackets after ≈: the same amount, converted by molar mass.

test system: Bacillus anthracis; assay: microbe, parasite or virus in culture; conditions: Sterne 34F2, 20 h

Row | Compound | MBC | MIC
1 | Nc1cccc(-c2cnnc(N3CCC(c4cccc(Cl)c4)C3)n2)c1 (stereo unspecified) | 128 µM (≈ 45 µg/mL) | 32 µM (≈ 11.3 µg/mL)
2 | Clc1cccc(C2CCN(c3nncc(-c4ccccc4)n3)C2)c1 (stereo unspecified) | 128 µM (≈ 43.1 µg/mL) | 16 µM (≈ 5.39 µg/mL)
3 | COc1ccc(-c2cnnc(N3CCC(c4cccc(Cl)c4)C3)n2)cc1OC (stereo unspecified) | > 128 µM | 16 µM (≈ 6.35 µg/mL)
